Results of unrelated studies side by side (data: NIAID ChemDB).

Common to all: enzyme or target tests; protein: CCR5

ICn is the concentration giving n% inhibition.

SMILES,method,changes,endpoint,dose,setting,value
CN(C[C@@H](CCN1CCC(C(C)(C)C)CC1)c1cccc(Cl)c1)S(=O)(=O)c1ccccc1,radioligand binding / binding,-,IC50,-,-,<10 µM
C=CCN(C(=O)OCc1ccc([N+](=O)[O-])cc1)C1CCN(CC[C@](C)(CN(C)S(=O)(=O)c2ccccc2)c2ccccc2)CC1,radiometric,CCR5-D276A,fold resistance,-,-,2.35
CCCN(C(=O)N(C)Cc1ccccc1)C1CCN(CCC(CN(C)S(=O)(=O)c2ccccc2)c2ccccc2)CC1,radioligand binding / binding,-,IC50,-,-,>0.02 µM
CCO/N=C(\c1ccc(Br)cc1)C1CCN(C2(C)CCN(C(=O)c3c(C)ccnc3C)CC2)CC1,binding,-,Ki,-,-,0.0079 µM
CCOC(=O)N(CC1CCCCC1)C1CCN(CCC(CN(C)S(=O)(=O)c2ccccc2)c2ccccc2)CC1,radioligand binding / binding,-,IC50,-,-,0.04 µM
O=C(c1ccccc1Cl)N1C[C@H](CN2CCC(O)(CCCc3ccc(-c4nn[nH]n4)cc3)CC2)[C@@H](c2ccccc2)C1,radiometric,CCR5-Y251A,IC50,-,-,0.055 µM
CCN(C(=O)OCc1ccccc1)C1CCN(CCC(COC(=O)N(C)C)(CN(C)S(=O)(=O)c2ccccc2)c2ccccc2)CC1,radioligand binding / binding,-,IC50,-,-,>0.1 µM
C[C@H]1CN(C2CCN(C(=O)c3c(F)cccc3I)CC2)CCN1[C@@H](C)c1ccc(I)cc1,binding,-,Ki,-,-,1.3 µM
C[C@H]1CN(C2CCN(C(=O)c3c(F)cccc3I)CC2)CCN1[C@@H](C)c1ccc(I)cc1,binding,-,Ki,-,-,1.3 µM
CC(CC(CN(C)S(=O)(=O)c1ccccc1)c1ccccc1)N1CCC(c2ccccc2)CC1,radioligand binding / binding,-,IC50,-,-,0.11 µM
CCN(C)C(=O)C1CCN(CCC(CN(C)S(=O)(=O)c2ccccc2)c2ccccc2)CC1,radioligand binding / binding,-,IC50,-,-,>10 µM
CC#CCN1C(=O)[C@H]([C@@H](O)C2CCCCC2)NC(=O)C12CCN(Cc1c(C)nn(-c3ccccc3)c1C)CC2,radiometric,-,inhibition,10 µM,-,25%
CCO/N=C(\c1ccc(Br)cc1)C1CCN(C2(C)CCN(C(=O)c3c(C)cc[n+]([O-])c3C)CC2)CC1,radiometric,-,Ki,-,24 h,0.0026 µM
CN(C[C@@H](CCN1CCc2ccccc2C1)c1cccc(Cl)c1)S(=O)(=O)c1ccccc1,radioligand binding / binding,-,inhibition,10 µM,-,73%
CCN(C(=O)OCc1ccccc1)C1CCN(CC[C@](C)(CN(C)S(=O)(=O)c2ccccc2)c2ccccc2)CC1,radiometric,CCR5-W86A,fold resistance,-,-,52.5
Cc1cccc(C)c1C(=O)N1CCC(N2CCN([C@@H](C)c3ccc(I)cc3)[C@@H](C)C2)CC1,radiometric,-,Ki,-,-,0.01 µM

Again, the opening 2 rows:

SMILES	method	changes	endpoint	dose	setting	value
CN(C[C@@H](CCN1CCC(C(C)(C)C)CC1)c1cccc(Cl)c1)S(=O)(=O)c1ccccc1	radioligand binding / binding	-	IC50	-	-	<10 µM
C=CCN(C(=O)OCc1ccc([N+](=O)[O-])cc1)C1CCN(CC[C@](C)(CN(C)S(=O)(=O)c2ccccc2)c2ccccc2)CC1	radiometric	CCR5-D276A	fold resistance	-	-	2.35

Inhibition is in % at the dose shown (toxicity tests: loss of growth or viability). Neighbouring rows are from separate reports. An empty or dashed field is not shown. Fold resistance has wild type as its base.